Tested on: 8E5 cells
Experiment: Toxicity in the cell fusion test (MTT assay or trypan blue exclusion)
Settings: 5 × 10^-5 M

Substance: [GPG(R)D AF]8 -MLC
- Toxicity: Toxic
